Anti-infective test results gathered from many reports (values: NIAID ChemDB through PubChem).

All rows: whole-cell or culture tests; species: HIV-1; endpoint: EC50

ECn is the concentration giving n% inhibition of infection, replication or growth. Blank or dashed fields: not listed here. Rows are shuffled and stem from different studies.

compound | method | strain | changes | cells | value
Cc1cn([C@H]2C[C@H](N=[N+]=[N-])[C@@H](CO)O2)c(=O)[nH]c1=O | luciferase | Recombinant | RT-M41L S68N G112S M184V | HeLa | 0.00608 µM
COc1ccc2c(c1)N(C(=O)OC(C)C)[C@@H](CSC)C(=S)N2 | cytopathic effect / MTT | Recombinant mutant | RT-E138A | MT-4 | 0.0035 µM
CS(=O)(=O)c1ccc(OP(=O)(OC[C@@H]2CC[C@H](n3cnc4c(=O)[nH]cnc43)O2)OC[C@@H]2CC[C@H](n3cnc4c(=O)[nH]cnc43)O2)cc1 | cytopathic effect / trypan blue | IIIB | - | MT-4 | ≥250 µM
Cc1nnc(C(=O)NC(C)(C)c2nc(C(=O)NCc3ccc(F)cc3)c(O)c(=O)n2C)o1 | flow cytometry | NL4-3 | - | CEM-GFP | 0.0024 µM
CS(=O)(=O)c1ccc(OP(=O)(OC[C@@H]2C=C[C@H](n3cnc4c(N)ncnc43)O2)OC[C@@H]2C=C[C@H](n3cnc4c(N)ncnc43)O2)cc1 | cytopathic effect / trypan blue | IIIB | - | MT-4 | 74 µM
CC1(C)CC[C@]2(CO)CC[C@]3(C)C(=CCC4[C@@]5(C)CC[C@H](O)C(C)(C)C5CC[C@]43C)C2C1 | GFP | IIIB | - | HOS.R5 + HOS | >45.2 µM
Cc1cc(/C=C/C#N)cc(C)c1Nc1ccnc(Nc2ccc(C#N)cc2)n1 | flow cytometry | NL4-3 | - | CEM-GFP | 0.001298 µM
C=C(CC[C@@H](C)[C@H]1CC[C@@]2(C)[C@@H]3CC[C@H]4[C@](C)(C(=O)O)[C@@H](O)CC(=O)[C@@]45C[C@@]35CC[C@]12C)C(C)C | syncytia / β-galactosidase | MC99 deltaTAT/REV | - | 1A2 | 6.8 µg/mL
O=c1[nH]cnc2c1ncn2[C@H]1CC[C@@H](CO)O1 | luciferase | NL4-3 WT | - | HeLa | 2.64 µM
CCCOCc1cn([C@H]2C[C@H](N=[N+]=[N-])[C@@H](CO)O2)c(=O)[nH]c1=O | ELISA / antigen | IIIB | - | MT-4 | >100 µM
Cc1cn([C@H]2C[C@H](N=[N+]=[N-])[C@@H](CO)O2)c(=O)[nH]c1=O | p24 / ELISA | CH119 | - | TZM-bl | 0.00363 µM
Cc1cc(=O)c2ccc(N=C=S)cc2o1 | p24 / ELISA | IIIB | - | CEM-GFP | 0.242 µM
CC(C)OC(=O)OCOP(=O)(CO[C@H](C)Cn1cnc2c(N)ncnc21)OCOC(=O)OC(C)C | cytopathic effect / XTT / absorbance | NL4-3 | K65R | MT-4 | 0.1 µM
C1=C\CCCCN(CC[C@H]2NCCc3c2[nH]c2ccccc32)CCCC/1 | GFP / reporter gene | NL4-3 | - | CEM-GXR | 3.4 µM
CC(CCC[C@@H](C)[C@H]1CC[C@@]2(C)[C@@H]3CC[C@H]4C(C)(C)C(=O)CCC45CC35CC[C@]12C)C(=O)O | GFP | IIIB | - | HOS.R5 + HOS | >43.9 µM
Nc1nc(NC2CC2)c2ncn([C@H]3C=C[C@@H](CO)C3)c2n1 | flow cytometry | NL4-3 | - | CEM-GFP | 0.08975 µM
CC(C)(C)OC(=O)N[C@@H](Cc1ccc(OCCN2CCOCC2)cc1)[C@@H](O)C[C@@H](Cc1ccc(OCCN2CCOCC2)cc1)C(=O)N[C@H]1c2ccccc2C[C@H]1O | antigen | IIIB | - | H9 | <0.1 µM
O=C1Nc2ccc(Cl)cc2[C@@](C#CC2CC2)(C(F)(F)F)O1 | flow cytometry | NL4-3 | - | CEM-GFP | 0.000008 µM
CC(C)=CC(=O)C[C@@H](C)[C@H]1CC[C@@]2(C)[C@@H]3CC[C@H]4[C@](C)(C(=O)O)[C@@H](O)CC[C@@]45C[C@@]35CC[C@]12C | syncytia / β-galactosidase | MC99 deltaTAT/REV | - | 1A2 | 110 µg/mL
CC(C)(C)OC(=O)N[C@@H](Cc1ccccc1)[C@@H](O)C[C@@H](Cc1ccc(OCCN2CCOCC2)cc1)C(=O)N[C@H]1c2ccccc2C[C@H]1O | antigen | SF162 | - | Monocytes/macrophages | <0.025 µM
CS(=O)(=O)c1ccc(OP(=O)(OC[C@@H]2C=C[C@H](n3cnc4c(=O)[nH]cnc43)O2)OC[C@@H]2C=C[C@H](n3cnc4c(=O)[nH]cnc43)O2)cc1 | cytopathic effect / trypan blue | IIIB | - | MT-4 | >250 µM
CC(C)(C)OC(=O)N[C@@H](Cc1ccc(O)cc1)[C@@H](O)C[C@@H](Cc1ccc(O)cc1)C(=O)N[C@H]1c2ccccc2C[C@H]1O | antigen | IIIB | - | H9 | <0.78 µM
Nc1ccn([C@H]2CC[C@@H](CO)O2)c(=O)n1 | cytopathic effect / MTT | IIIB Recombinant wild type | - | MT-4 | 0.078 µM
COCc1cn([C@H]2C[C@H](N=[N+]=[N-])[C@@H](CO)O2)c(=O)[nH]c1=O | ELISA / antigen | IIIB | - | MT-4 | >100 µM
CSc1ccc(OP(=O)(OC[C@@H]2CC[C@H](n3cnc4c(N)ncnc43)O2)OC[C@@H]2CC[C@H](n3cnc4c(N)ncnc43)O2)cc1 | cytopathic effect / trypan blue | IIIB | - | MT-4 | 67 µM
CC(C)(C)OC(=O)N[C@@H](Cc1ccccc1)[C@@H](O)C[C@@H](Cc1ccc(OCCN2CCCCC2)cc1)C(=O)N[C@H]1c2ccccc2C[C@H]1O | antigen | IIIB | - | H9 | <0.4 µM
Cn1c2ccccc2c2c1cc(C#N)c(=O)n2-c1ccc([N+](=O)[O-])cc1 | luciferase | NNRTI-resistant | RT-K103N Y181C | HeLa | 0.0276 µM
CC(=O)c1ccc(C)cc1NC(C(N)=O)c1c(Cl)cccc1Cl | cytopathic effect / MTT | HXB2 (RT E138A S162C E169D T200A L214F) Clinical isolate | RT-E138A S162C E169D T200A L214F | MT-4 | 0.171 µM
CC[C@H](C)[C@H](NC(=O)c1ccccc1SSc1ccccc1C(=O)N[C@H](C(=O)O)[C@@H](C)CC)C(=O)O | p24 / RT activity | BaL | - | Macrophage | 24 µM
Cc1ccnc2c1NC(=O)c1cccnc1N2C1CC1 | β-galactosidase | NNRTI-resistant (RT V106A) | RT-V106A | MAGI | 8.2 µM
CCCCCCOCc1cn([C@H]2C[C@H](N=[N+]=[N-])[C@@H](CO)O2)c(=O)[nH]c1=O | ELISA / antigen | IIIB | - | MT-4 | >100 µM
C[C@H](Cn1cnc2c(N)ncnc21)OCP(=O)(O)O | cytopathic effect / XTT / absorbance | NL4-3 | - | MT-4 | 4.89 µM
CCCCOCc1cn([C@H]2C[C@H](N=[N+]=[N-])[C@@H](CO)O2)c(=O)[nH]c1=O | ELISA / antigen | IIIB | - | MT-4 | >100 µM
Cc1ccnc2c1NC(=O)c1cccnc1N2C1CC1 | cytopathic effect / MTT | HXB2 (RT E138A S162C E169D T200A L214F) Clinical isolate | RT-E138A S162C E169D T200A L214F | MT-4 | 0.132 µM